The values below come from patent US3945994A, “Novel acid compounds” (Gist-Brocades N.V., priority 1973, dated 1976).

Some test systems named below: Shigella equirulis T 3; Brucella suis A 1088; Proteus mirabilis L 93.
Common to all, as to assay: agar serial dilution test, MIC
Common to all, as to details: 24 hours at 37°C

A further test relates to Escherichia coli U 20. The format is cell-based.
Test [1] concerns Klebsiella pneumoniae A 809. The format is cell-based.
In test [2] the test system is Pseudomonas aeruginosa Wyeth A 1058. The format is cell-based.
Test [3] relates to Pasteurella multocida A 723. The test is classed as cell-based.
The subject of test [4] is Streptococcus haemolyticus A 1088. The test is classed as cell-based.
For test [5], the system named is Pseudomonas aeruginosa 2396. The format is cell-based.
For test [6], the system named is Diplococcus pneumoniae L 54. The test is classed as cell-based.
The next test relates to Salmonella dublin P 43. The format is cell-based.
For test [7], the system named is Brucella melitensis A 488.
Test [8] concerns Salmonella typhimurium R 127. The format is cell-based.
Another test relates to Proteus morganii 2241. The test is classed as cell-based.
In test [9] the test system is Streptococcus faecalis L 80. The format is cell-based.
Test [10] concerns Staphylococcus aureus A 355'. The format is cell-based.
For the next test, the system named is Proteus mirabilis A 1200. The test is classed as cell-based.
The subject of a further test is Proteus mirabilis H 3. The format is cell-based.
Test [11] concerns Staphylococcus aureus A 321. The test is classed as cell-based.
The subject of test [12] is Staphylococcus aureus A 2000. The format is cell-based.
In test [13] the test system is Streptococcus haemolyticus A 266. The test is classed as cell-based.
The next test deals with Proteus rettgeri A 821. The format is cell-based.
For test [14], the system named is Pseudomonas aeruginosa H 10. The format is cell-based.
The subject of test [15] is Staphylococcus aureus A 2001. The format is cell-based.
Test [16] relates to Salmonella typhimurium R172. The test is classed as cell-based.

Converted amounts (≈) assume the structure as drawn. A value given as a limit tells only on which side of the number the result lay.

`CC1(C)S[C@@H]2[C@H](NC(=O)[C@H](NC(=O)NP(=O)(O)O)c3ccccc3)C(=O)N2[C@H]1C(=O)O`: the MIC in the test with Shigella equirulis T 3 was 1.5 µg/mL (≈ 3.18 µM); with Brucella suis A 1088, 1.5 µg/mL (≈ 3.18 µM); against Escherichia coli U 20 it was 3 µg/mL (≈ 6.35 µM); in test [1], 100 µg/mL (≈ 212 µM); in test [2] it was 1.5 µg/mL (≈ 3.18 µM); in test [3] it was 0.75 µg/mL (≈ 1.59 µM). Moreover, the MIC in test [4] stood at 0.75 µg/mL (≈ 1.59 µM); in [5] it was 6 µg/mL (≈ 12.7 µM); in test [6] it was 6 µg/mL (≈ 12.7 µM); in the test on Salmonella dublin P 43, 0.75 µg/mL (≈ 1.59 µM).

`CCOP(=S)(NC(=S)N[C@@H](C(=O)N[C@@H]1C(=O)N2[C@@H]1SC(C)(C)[C@@H]2C(=O)O)c1ccccc1)OCC`: the MIC in [7] is 6 µg/mL (≈ 10.7 µM); in the test with Shigella equirulis T 3, 25 µg/mL (≈ 44.6 µM); in the test on Proteus mirabilis L 93, 25 µg/mL (≈ 44.6 µM); in test [8], greater than 100 µg/mL; against Escherichia coli U 20, greater than 100 µg/mL; against Proteus morganii 2241, greater than 100 µg/mL. Moreover, the MIC is 50 µg/mL (≈ 89.2 µM) in [9]; greater than 100 µg/mL in test [10]; greater than 100 µg/mL against Proteus mirabilis A 1200; greater than 100 µg/mL in the test on Proteus mirabilis H 3; greater than 100 µg/mL in test [1]; greater than 100 µg/mL in test [2]. In addition, the MIC in [3] was 6 µg/mL (≈ 10.7 µM); in [11], 3 µg/mL (≈ 5.35 µM); in [12], 25 µg/mL (≈ 44.6 µM); in [13], 0.5 µg/mL (≈ 0.892 µM); in the test with Proteus rettgeri A 821, greater than 100 µg/mL; in test [5], greater than 100 µg/mL. The MIC was 3 µg/mL (≈ 5.35 µM) in [6], greater than 100 µg/mL with Salmonella dublin P 43 and greater than 100 µg/mL in test [14].

`CCOP(=O)(NC(=O)N[C@@H](C(=O)N[C@@H]1C(=O)N2[C@@H]1SC(C)(C)[C@@H]2C(=O)O)c1ccccc1)OCc1ccccc1` (stereo partly shown): the MIC came to 6 µg/mL (≈ 10.2 µM) in the test on Shigella equirulis T 3; 1.5 µg/mL (≈ 2.54 µM) against Brucella suis A 1088; 6 µg/mL (≈ 10.2 µM) in [9]; 6 µg/mL (≈ 10.2 µM) in [10]; 1.5 µg/mL (≈ 2.54 µM) with Proteus mirabilis A 1200; 3 µg/mL (≈ 5.08 µM) in the test on Proteus mirabilis H 3. Besides, the MIC worked out at 25 µg/mL (≈ 42.3 µM) in [1]; 50 µg/mL (≈ 84.7 µM) in test [2]; 0.5 µg/mL (≈ 0.847 µM) in test [3]; 0.5 µg/mL (≈ 0.847 µM) in test [11]; 6 µg/mL (≈ 10.2 µM) in test [12]; 25 µg/mL (≈ 42.3 µM) in test [5]. In addition, the MIC in test [15] came out at 6 µg/mL (≈ 10.2 µM); in [6], 0.25 µg/mL (≈ 0.423 µM); with Salmonella dublin P 43, 3 µg/mL (≈ 5.08 µM); in test [14], 50 µg/mL (≈ 84.7 µM).

Consider `CC1(C)S[C@@H]2[C@H](NC(=O)[C@H](NC(=O)NP(=O)(O)c3ccccc3)c3ccccc3)C(=O)N2[C@H]1C(=O)O`, for which the MIC against Shigella equirulis T 3 came to 1.5 µg/mL (≈ 2.82 µM); in the test with Brucella suis A 1088, 1.5 µg/mL (≈ 2.82 µM); in the test with Proteus morganii 2241 it was 6 µg/mL (≈ 11.3 µM); in the test on Proteus mirabilis A 1200, 3 µg/mL (≈ 5.63 µM); against Proteus mirabilis H 3, 3 µg/mL (≈ 5.63 µM); in test [2], 50 µg/mL (≈ 93.9 µM). In addition, the MIC in [11] was found to be 0.75 µg/mL (≈ 1.41 µM); in [12], 6 µg/mL (≈ 11.3 µM); in test [15], 6 µg/mL (≈ 11.3 µM); in test [6] it was 0.5 µg/mL (≈ 0.939 µM); with Salmonella dublin P 43, 6 µg/mL (≈ 11.3 µM); in test [14], 50 µg/mL (≈ 93.9 µM).

As for `CC1(C)S[C@@H]2[C@H](NC(=O)[C@H](NC(=O)NP(=O)(OCc3ccccc3)c3ccccc3)c3ccccc3)C(=O)N2[C@H]1C(=O)O` (stereo partly shown), the MIC with Shigella equirulis T 3 was 3 µg/mL (≈ 4.82 µM); against Brucella suis A 1088, 1.5 µg/mL (≈ 2.41 µM); in the test on Escherichia coli U 20, 25 µg/mL (≈ 40.2 µM); in test [9] it was 3 µg/mL (≈ 4.82 µM); in test [10], 3 µg/mL (≈ 4.82 µM); against Proteus mirabilis A 1200, 6 µg/mL (≈ 9.64 µM). In addition, the MIC is 25 µg/mL (≈ 40.2 µM) in test [16]; 25 µg/mL (≈ 40.2 µM) in [1]; 25 µg/mL (≈ 40.2 µM) in test [2]; 1.5 µg/mL (≈ 2.41 µM) in test [3]; 0.75 µg/mL (≈ 1.2 µM) in [11]; 3 µg/mL (≈ 4.82 µM) in test [12]. The minimum inhibitory concentration (MIC) stood at 0.06 µg/mL (≈ 0.0964 µM) in test [4]; 25 µg/mL (≈ 40.2 µM) in test [5]; 3 µg/mL (≈ 4.82 µM) in [15]; 0.12 µg/mL (≈ 0.193 µM) in [6]; 50 µg/mL (≈ 80.3 µM) in test [14].
